Anti-infective test results gathered from many reports (values: NIAID ChemDB through PubChem).

All rows: target-level tests; agent: Hepatitis C virus; protein: Nonstructural protein 5B; read-out: inhibition

Percent inhibition refers to the dose given; in toxicity tests it is the harm to the cells. Conditions beyond the fields shown may differ between rows.

compound,dose,value
COc1nc(NCCc2ccccn2)nc(Nc2ccc3cn[nH]c3c2)n1,0.1 µg/mL,0%
CSc1nc(Nc2ccc(N3CCOCC3)cc2)cc(N2CCN(CC(=O)N3CCSCC3)CC2)n1,1 µg/mL,67%
O=C(NCCc1cccnc1)c1ccc(S(=O)(=O)Nc2ccc(N3CCOCC3)cc2)cc1,0.1 µg/mL,47%
CCN(CC)CCN(C)C(=O)CN1CCN(c2cc(Nc3ccc(N4CCOCC4)cc3)nc(SC)n2)CC1,1 µg/mL,74%
COc1nc(NCCN2CCOCC2)nc(Nc2ccc3[nH]ncc3c2)n1,10 µg/mL,33%
CSc1nc(Nc2ccc(N3CCOCC3)cc2)cc(N2CCN(CC(=O)N(C)CCO)CC2)n1,1 µg/mL,67%
COc1nc(NCCCn2ccnc2)nc(Nc2ccc3[nH]ncc3c2)n1,1 µg/mL,52%
NS(=O)(=O)c1ccc(CCNc2cc(C(=O)Nc3ccc4cn[nH]c4c3)c(F)cc2F)cc1,0.1 µg/mL,25%
COc1nc(NCCO)nc(Nc2ccc3[nH]ncc3c2)n1,0.1 µg/mL,10%
O=C(Nc1ccc2[nH]ncc2c1)c1cc(NCCN2CCOCC2)c(F)cc1F,1 µg/mL,26%
Cc1cnc(CNC(=O)c2ccc(S(=O)(=O)Nc3ccc(N4CCOCC4)cc3)cc2)cn1,1 µg/mL,75%
CSc1nc(Nc2ccc(N3CCOCC3)cc2)cc(N2CCN(CC(=O)NCCN(C(C)C)C(C)C)CC2)n1,1 µg/mL,68%
CC(Cc1ccccn1)Nc1cc(C(=O)Nc2ccc3cn[nH]c3c2)c(F)cc1F,0.1 µg/mL,0%
CSc1nc(Nc2ccc(N3CCOCC3)cc2)cc(N2CCN(CC(=O)N3CCCC3)CC2)n1,1 µg/mL,73%
CC(C)CNc1cc(C(=O)Nc2ccc3cn[nH]c3c2)c(F)cc1F,1 µg/mL,23%
CN(C)C(=O)c1ccc(S(=O)(=O)Nc2ccc(N3CCOCC3)cc2)cc1,0.01 µg/mL,20%
CSc1nc(Nc2ccc(N3CCOCC3)cc2)cc(N2CCN(CC(=O)N3CCC(N4CCCCC4)CC3)CC2)n1,1 µg/mL,75%
COc1nc(NCCCN2CCOCC2)nc(Nc2ccc3cn[nH]c3c2)n1,1 µg/mL,53%
O=C(NCCN1CCOCC1)c1ccc(S(=O)(=O)Nc2ccc(N3CCOCC3)cc2)cc1,10 µg/mL,94%
CSc1nc(Nc2ccc(N3CCOCC3)cc2)cc(N2CCN(CC(=O)N3CCSC3)CC2)n1,1 µg/mL,64%
CC(C)NC1=NC(NC(C)C)N(CN)C(Nc2ccc3cn[nH]c3c2)=N1,1 µg/mL,56%
O=C(Nc1ccc2[nH]ncc2c1)c1cc(NCCN2CCCC2)c(F)cc1F,10 µg/mL,74%